This is an account of results in patent US20150099705A1.

For the first experiment, the target named is human Nav1.5 (human), Q14524. The experiment can be described thus: cell-based or functional assay.
Molecule GPRCQKWMQTCDAERKCCEGFVCRLWCKKKLW (modifications not checked) [NV1D2772] had a hNav1.5 QPatch IC50 of over 3000 nM. GPQCQKWMQTCDAERKCCEGFVCRLWCKKKLW (modifications not checked) [NV1D2775] yielded a hNav1.5 QPatch IC50 of over 3000 nM. The same measure, in the same setting: the figure for GPSCQKWMQTCDAERKCCEGFVCRLWCKKKLW (modifications not checked) [NV1D2773] is over 3000 nM; for GPACQKWMQTCDAERKCCEGFVCRLWCKKKLW (modifications not checked) [NV1D2774] it is over 3000 nM. Still for that read-out and setting: the figure for GPYCQKWMWTCDSERKCCEGMVCRLWCKKKLW (modifications not checked) [NV1D12] is over 1000 nM; for GPQCQKWMQTCDRERKCCEGFVCTLWCRKKLW (modifications not checked) [NV1D3034] it is over 1000 nM.

Another experiment concerns the target human Nav1.6 (human). The experiment can be described thus: cell-based or functional assay.
GPYCQKWMWTCDSERKCCEGMVCRLWCKKKLW (modifications not checked) [NV1D12]: the IC50, QPatch electrophysiology assay amounted to 6.2e-08 M.

A further experiment addresses human Nav1.7 (sodium channel protein type 9 subunit alpha) (human), Q15858. The experiment can be described thus: cell-based or functional assay.
GPACQKWFQTCDAERKCCEGMVCRLWCKKKLW (modifications not checked) [NV1D2867]: the hNav1.7 TETRA IC50 is over 1000 nM. In turn, GPSCQKWFQTCDSERKCCEGLVCRLWCKKKLW (modifications not checked) [NV1D2878] came in with a hNav1.7 TETRA IC50 of 680 nM.

For the molecule GPSCQKWFQTCDAERKCCEGLVCRLWCKKKLW (modifications not checked) [NV1D2918], the hNav1.7 TETRA IC50 was found to be 983 nM.

GPQCQKWFQTCDSERKCCEGLVCRLWCKKKLW (modifications not checked) [NV1D2870]: the hNav1.7 TETRA IC50 came to 784 nM. Same read-out and setting: the figure for GPSCQKWFQTCDSERKCCEGFVCRLWCKKKLW (modifications not checked) [NV1D2877] is 441 nM; for GPACQKWFQTCDAERKCCEGFVCRLWCKKKLW (modifications not checked) [NV1D2921] it is 586 nM. GPRCQKWMQTCDAERKCCEGFVCRLWCKKKLW (modifications not checked) [NV1D2772] yielded a hNav1.7 QPatch IC50 of 6.2 nM.

Molecule GPACQKWFQTCDSERKCCEGLVCRLWCKKKLW (modifications not checked) [NV1D2882] gave a hNav1.7 TETRA IC50 of 857 nM.

In turn, GPQCQKWFQTCDAERKCCEGFVCRLWCKKKLW (modifications not checked) [NV1D2909] showed a hNav1.7 TETRA IC50 of 97.1 nM.

Molecule GPSCQKWFWTCDAERKCCEGFVCRLWCKKKLW (modifications not checked) [NV1D2889] came in with a hNav1.7 TETRA IC50 of 12.1 nM. Still for that read-out and setting: the figure for GPQCQKWFQTCDAERKCCEGLVCRLWCKKKLW (modifications not checked) [NV1D2910] is 441 nM; for GPACQKWFQTCDAERKCCEGLVCRLWCKKKLW (modifications not checked) [NV1D2922] it is 204 nM.

Turning to GPSCQKWFQTCDAERKCCEGFVCRLWCKKKLW (modifications not checked) [NV1D2917], the hNav1.7 TETRA IC50 amounted to 197 nM.

As for GPRCQKWFQTCDAERKCCEGFVCRLWCKKKLW (modifications not checked) [NV1D2913], the hNav1.7 TETRA IC50 amounted to 79.7 nM. GPYCQKWFQTCDAERKCCEGFVCRLWCKKKLW (modifications not checked) [NV1D2905]: the hNav1.7 TETRA IC50 came to 713 nM. The same measure, in the same setting: the figure for GPACQKWFQTCDSERKCCEGFVCRLWCKKKLW (modifications not checked) [NV1D2881] is 488 nM. Same read-out and setting: the figure for GPQCQKWFQTCDAERKCCEGMVCRLWCKKKLW (modifications not checked) [NV1D2861] is over 1000 nM; for GPYCQKWFQTCDAERKCCEGLVCRLWCKKKLW (modifications not checked) [NV1D2906] it is 940 nM.

GPYCQKWMWTCDSKRKCCEGMVCRLWCKKKLW (modifications not checked) [NV1D791] showed a hNav1.7 TETRA IC50 of 4.8 nM. Molecule GPACQKWMQTCDSERKCCEGFVCRLWCKKKLW (modifications not checked) [NV1D2735] registered a hNav1.7 TETRA IC50 of 60 nM. GPYCQKWMWTCDSERKCCEGLVCRLWCKKKLW (modifications not checked) [NV1D1336] showed a hNav1.7 TETRA IC50 of 10.5 nM. For GPACQKWFQTCDSERKCCEGMVCRLWCKKKLW (modifications not checked) [NV1D2816], the hNav1.7 TETRA IC50 came to 667 nM.

In turn, GPSCQKWFQTCDSERKCCEGMVCRLWCKKKLW (modifications not checked) [NV1D2814] came in with a hNav1.7 TETRA IC50 of 754 nM. On the same count and under the same terms, the figure for GPYCQKWMWTCDSNRKCCEGMVCRLWCKKKLW (modifications not checked) [NV1D1332] is 6.7 nM.
